Patent US20130053277A1 (priority 2010, published 2013)

Target: Singapore wild-type M2-MalE chimera (Influenza A virus, UniProt P10920)
Details: 50 μM IPTG induction, 100 μM rimantadine, FIG. 1

## CC(N)C12CC3CC(CC(C3)C1)C2 (stereo not shown) [rimantadine, Rimantadine]
  expression of the M2 chimeric protein: enhanced
